From article PMC5712549

Tested on: HSF1-like HSE-binding protein, 51 kDa (anti-human HSF1 reactive) (Entamoeba histolytica (clones A[8] and C2[20]))
Test: UV-crosslinking + anti-HSF1 western blot
Conditions: emetine-grown trophozoites, poly[d(I-C)]; protein in an extract; label: 32P

Q: Does “ATAGAAATTTTTCATA (double strand) [HSE-S-16 (EhPgp5 HSE)]” bind?
A: Result: binds

The exact form of at least one protein or probe is not confirmed. Where cells or extracts were used, other partners may take part.
